PubChem BioAssay AID504761 – Drosophila RNAi Screening Center, 2011
Purpose: 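Fly genes whose silencing reduces dengue virus type 2 infection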 (primary screen). Cells: D.Mel-2 cells from Drosophila. Knock-down reagent: long dsRNA against Drosophila genes. Conditions: infection with dengue virus type 2; dose and infection time not stated. Measurement: 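Cells stained for dengue envelope protein and imaged; percent of infected cells per well on duplicate plates, ranked by infection, with stained nuclei counted for cell number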. Reading the numbers: infection score: higher = more virus-infected cells; cell count: higher = more cells in the well. Hit rule: 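Low infection ranks in the two replicates (chance level up to 0.065) followed by a retest with a 1.5-fold or larger significant decrease, p below 0.05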. Calls: active = confirmed: knock-down lowers infection; inactive = not picked or not confirmed.
In all, the deposit lists about 22,000 reagents; this is an unselected part of those with a known target gene and a result. Of all reagents, 116 (0.52%) got an active call. 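Calls depend on retest data that are not deposited; infection was ranked per plate without normalising between plates; the unit of the infection score is not given.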 Raw values are not corrected between plates. Further read-outs or replicates are left out here. Not stated in the record: the amount of reagent, the time to read-out.

| predicted target | DRSC id | infection score, replicate 1 | infection score, replicate 2 | cell count, replicate 1 | Call |
| --- | --- | --- | --- | --- | --- |
| CG13392 | DRSC02262 | 2.61 | 2.96 | 5969 | inactive |
| alien | DRSC03482 | 20.8 | 18.1 | 4553 | inactive |
| CG6435 | DRSC06987 | 17 | 17.4 | 2171 | inactive |
| CR33317 | DRSC02653 | 4.41 | 0.86 | 5238 | inactive |
| Alg13 | DRSC14864 | 3.66 | 19.3 | 6392 | inactive |
| Alg13 | DRSC28209 | 11.7 | 10.3 | 3770 | inactive |
| CG11191 | DRSC23224 | 1.09 | 2.22 | 6631 | inactive |
| CG11191 | DRSC28710 | 27.6 | 15.4 | 5820 | inactive |
| brk | DRSC23036 | 1.54 | 7.04 | 5961 | inactive |
| brk | DRSC27320 | 14.5 | 11.7 | 6539 | inactive |
| Hmgcr | DRSC16704 | 5.24 | 11.2 | 4714 | inactive |

Continued, starting with the last 3 of the part before.
| predicted target | DRSC id | infection score, replicate 1 | infection score, replicate 2 | cell count, replicate 1 | Call |
| --- | --- | --- | --- | --- | --- |
| brk | DRSC23036 | 1.54 | 7.04 | 5961 | inactive |
| brk | DRSC27320 | 14.5 | 11.7 | 6539 | inactive |
| Hmgcr | DRSC16704 | 5.24 | 11.2 | 4714 | inactive |
| Ldh | DRSC11198 | 0.55 | 3.3 | 5992 | inactive |
| Optix | DRSC05078 | 6.25 | 4.97 | 6588 | inactive |
| Optix | DRSC07484 | 6.77 | 16.9 | 5731 | inactive |
| Optix | DRSC21963 | 1.45 | 2.98 | 6607 | inactive |
| Optix | DRSC29089 | 13.2 | 14.4 | 3433 | inactive |
| CG5568 | DRSC10518 | 10.4 | 5.58 | 6631 | inactive |
| CG5568 | DRSC22816 | 2.48 | 2.28 | 5764 | inactive |
| CG5568 | DRSC24887 | 2.68 | 6.64 | 6822 | inactive |
| Obp56f | DRSC22270 | 5.31 | 6.78 | 6435 | inactive |
| GlcT | DRSC04525 | 2.79 | 24.4 | 6485 | inactive |
| GlcT | DRSC27991 | 9.45 | 5.31 | 6358 | inactive |
| E(spl)m3-HLH | DRSC23160 | 1.26 | 22.5 | 6978 | inactive |
| E(spl)m3-HLH | DRSC28511 | 21.8 | 8.03 | 5027 | inactive |
